Assay results as given in paper PMC8262909, “LcrQ Coordinates with the YopD-LcrH Complex To Repress lcrF Expression and Control Type III Secretion by Yersinia pseudotuberculosis” (2021).

target: LcrH (UniProt P23995); assay: bacterial two-hybrid assay; details: parent: est. 1500; read off a plot

With LcrQ F46A as the substance, how does the response read?
The response was 700 M.U.

For LcrQ F46A; L68A, which response is on record?
Its response is 850 M.U.

For LcrQ F46A; L102A, which response is on record?
The response was 200 M.U.

How did the response turn out when LcrQ L68A was run?
The response was 1500 M.U.

LcrQ L68A; L102A was tested. Which response did it give?
The response was 800 M.U.

For LcrQ L102A, which response is on record?
Its response is 700 M.U.
